Compound potency records, mixed from different reports. Data source: NIAID ChemDB in PubChem.

All rows: target-level tests; species: Hepatitis C virus

ICn is the concentration giving n% inhibition. Percent inhibition refers to the dose given; in toxicity tests it is the harm to the cells. Blank or dashed fields: not listed here. Rows are shuffled and stem from different studies. Two numbers with a dash give a range or band.

{"SMILES": "C=CCc1c(-c2ccc(OCc3ccccc3)cc2)nc2cc(C(=O)O)[nH]n2c1=O", "protein": "RNA-dependent RNA polymerase", "read-out": "IC50", "value": ">10 µM"}
{"SMILES": "CSc1nc2ccc(NC(=O)C3(NC(=O)c4ccc5c(c4)nc(-c4ccoc4)n5C4CCCCC4)CCCC3)cc2s1", "protein": "NS5B polymerase", "read-out": "IC50", "value": "0.5–5 µM"}
{"SMILES": "O=C(O)CCC(=O)N[C@H](C(=O)N[C@@H](CCC(=O)O)C(=O)N[C@@H](CCC(=O)O)C(=O)NC1(C(=O)O)CC1)C1CCCCC1", "protein": "Nonstructural protein 3 NTPase/helicase", "read-out": "inhibition", "dose": "83.5 µM", "value": "31%"}
{"SMILES": "C[C@@H]1CCCC[C@H]1n1c(-c2cccs2)nc2cc(C(=O)NC3(C(=O)Nc4ccc(/C=C/C(=O)O)cc4)CCCC3)ccc21", "protein": "NS5B polymerase", "read-out": "IC50", "value": "0.5–5 µM"}
{"SMILES": "O=C(O)c1sc(-c2ccccc2)cc1N(Cc1ccccc1)C(=O)c1ccc(Cl)cc1Cl", "protein": "NS3 ATPase", "read-out": "IC50", "value": "<5 µM"}
{"SMILES": "NC(=O)CC(NC(=O)c1ccc2c(c1)nc(-c1ccc3nc(-c4ccccc4)cnc3c1)n2C1CCCCC1)C(=O)O", "protein": "NS5B polymerase", "read-out": "inhibition", "dose": "33 µM", "value": "75.95%"}
{"SMILES": "O=C(O)c1sc(-c2ccccc2)cc1NS(=O)(=O)c1ccc(F)cc1F", "protein": "NS3 ATPase", "read-out": "IC50", "value": "<5 µM"}
{"SMILES": "O=C(O)c1cc2nc(-c3ccccc3)cc(-c3ccc(Cl)cc3)n2n1", "protein": "RNA-dependent RNA polymerase", "read-out": "IC50", "value": ">10 µM"}
{"SMILES": "C[C@@H](NC(=O)c1ccc2c(c1)nc(-c1ccoc1)n2C1CCCCC1)C(=O)Nc1ccc(/C=C/C(=O)O)cc1", "protein": "NS5B polymerase", "read-out": "IC50", "value": "<0.5 µM"}
{"SMILES": "Cc1ccc(S(=O)(=O)Nc2cc(C(C)(C)C)sc2C(=O)O)c(C)c1", "protein": "NS3 ATPase", "read-out": "IC50", "value": "5–20 µM"}
{"SMILES": "CN(C)CCNC(=O)c1ccc(-c2ccccc2)c(-c2ccc3cc(-c4nc5cc(C(=O)O)ccc5n4C4CCCCC4)ccc3n2)c1", "protein": "NS5B polymerase", "read-out": "inhibition", "dose": "100 µM", "value": "99.97%"}
{"SMILES": "CC(=O)N[C@H](C(=O)N[C@@H](CCC(=O)O)C(=O)N[C@@H](CCC(=O)O)C(=O)N[C@@H](CS)C(=O)O)C1CCCCC1", "protein": "Nonstructural protein 3 NTPase/helicase", "read-out": "inhibition", "dose": "167 µM", "value": "74%"}
{"SMILES": "O=C(O)CC(=O)Nc1cnn2c(C3CCCCC3)c(-c3ccc(OCc4ccccc4)cc3)cnc12", "protein": "RNA-dependent RNA polymerase", "read-out": "IC50", "value": "1–10 µM"}
{"SMILES": "NCCCCC(NC(=O)c1ccc2c(c1)nc(-c1ccc3nc(-c4ccccc4)ccc3c1)n2C1CCCCC1)C(=O)O", "protein": "NS5B polymerase", "read-out": "inhibition", "dose": "33 µM", "value": "60.45%"}
{"SMILES": "C[C@H]1CCC[C@H](C)C1n1c(-c2ccco2)nc2cc(C(=O)NC3(C(=O)Nc4ccc(/C=C/C(=O)O)cc4)CCCC3)ccc21", "protein": "NS5B polymerase", "read-out": "IC50", "value": "0.5–5 µM"}
{"SMILES": "CCC(C)[C@H](NC(=O)[C@@H](NC(=O)CCC(=O)O)C1CCCCC1)C(=O)N[C@@H](CCC(=O)O)C(=O)NC1(C(=O)O)CC1", "protein": "Nonstructural protein 3 NTPase/helicase", "read-out": "inhibition", "dose": "167 µM", "value": "28%"}
{"SMILES": "O=C(O)/C=C/c1ccc(NC(=O)C2(NC(=O)c3ccc4c(c3)nc(-c3ccoc3)n4C3CCCCC3)CCNCC2)cc1", "protein": "NS5B polymerase", "read-out": "IC50", "value": "<0.5 µM"}
{"SMILES": "O=C(O)c1cc2nc(-c3ccc(OCc4ccccc4)cc3)c(CCC3CCCCC3)c(=O)n2[nH]1", "protein": "RNA-dependent RNA polymerase", "read-out": "IC50", "value": "<1 µM"}
{"SMILES": "O=C(O)c1ccc2c(c1)nc(-c1ccc3nc(-c4ccccc4)cnc3c1)n2C1CCCCC1", "protein": "NS5B polymerase", "read-out": "inhibition", "dose": "33 µM", "value": "74.98%"}
{"SMILES": "C[C@H]1CCC[C@H](C)C1n1c(-c2ccccn2)nc2cc(C(=O)NC3(C(=O)Nc4ccc(/C=C/C(=O)O)cc4)CCCC3)ccc21", "protein": "NS5B polymerase", "read-out": "IC50", "value": "0.5–5 µM"}
{"SMILES": "O=C(O)c1ccc2c(c1)nc(-c1ccc3nc(-c4cc([N+](=O)[O-])ccc4-c4ccc(Cl)cc4)ccc3c1)n2C1CCCCC1", "protein": "NS5B polymerase", "read-out": "inhibition", "dose": "33 µM", "value": "99.19%"}
{"SMILES": "NC(=O)CC[C@H](NC(=O)[C@@H](NC(=O)CCC(=O)O)C1CCCCC1)C(=O)N[C@H](C(=O)N[C@@H](CS)C(=O)O)c1ccc(-c2ccccc2)cc1", "protein": "Nonstructural protein 3 NTPase/helicase", "read-out": "inhibition", "dose": "16.7 µM", "value": "61%"}
{"SMILES": "CC(NC(=O)c1ccc2c(c1)nc(-c1ccoc1)n2C1CCCCC1)C(=O)NC(C)C(=O)Nc1ccc(CCCC(=O)O)cc1", "protein": "NS5B polymerase", "read-out": "IC50", "value": "5–25 µM"}
{"SMILES": "CN(C(=O)C1CCCCC1)c1cc(-c2ccccc2)sc1C(=O)O", "protein": "NS3 ATPase", "read-out": "IC50", "value": "<5 µM"}
{"SMILES": "O=C(O)c1cc2nc(-c3ccccc3)cc(-c3cccc(Cl)c3)n2n1", "protein": "RNA-dependent RNA polymerase", "read-out": "IC50", "value": ">10 µM"}
{"SMILES": "O=C(O)CCCC(=O)N[C@H](C(=O)N[C@@H](CCC(=O)O)C(=O)N[C@@H](Cc1ccc2ccccc2c1)C(=O)N[C@@H](CS)C(=O)O)C1CCCCC1", "protein": "Nonstructural protein 3 NTPase/helicase", "read-out": "inhibition", "dose": "16.7 µM", "value": "88%"}
{"SMILES": "CC(NC(=O)c1ccc2c(c1)nc(-c1ccoc1)n2C1CCCCC1)C(=O)Nc1ccc(CC(=O)O)cc1", "protein": "NS5B polymerase", "read-out": "IC50", "value": "0.5–5 µM"}
{"SMILES": "O=C(O)c1cnn2c(C3CCCCC3)c(-c3ccc(F)cc3)cnc12", "protein": "RNA-dependent RNA polymerase", "read-out": "IC50", "value": "<1 µM"}
{"SMILES": "CC(=O)N[C@H](C(=O)N[C@@H](CCC(=O)O)C(=O)N[C@@H](CCC(=O)O)C(=O)NC1(C(=O)O)CC1)C1CCCCC1", "protein": "Nonstructural protein 3 NTPase/helicase", "read-out": "IC50", "value": ">167 µM"}
{"SMILES": "O=C(O)c1ccc2c(c1)nc(-c1ccc3ncc(-c4ccccc4)nc3c1)n2C1CCCCC1", "protein": "NS5B polymerase", "read-out": "inhibition", "dose": "33 µM", "value": "84.42%"}
{"SMILES": "Cc1ccc(C(=O)N(C)c2cc(-c3cccc(C(F)(F)F)c3)sc2C(=O)O)cc1", "protein": "NS3 ATPase", "read-out": "IC50", "value": "<5 µM"}
{"SMILES": "O=C(N[C@@H](Cc1c[nH]c2ccccc12)C(=O)O)c1cnn2c(C3CCCCC3)c(-c3ccc(F)cc3F)cnc12", "protein": "RNA-dependent RNA polymerase", "read-out": "IC50", "value": "<1 µM"}
{"SMILES": "CC(C)C[C@H](NC(=O)CCC(=O)O)C(=O)N[C@@H](CCC(=O)O)C(=O)N[C@@H](CCC(=O)O)C(=O)N[C@@H](CS)C(=O)O", "protein": "Nonstructural protein 3 NTPase/helicase", "read-out": "inhibition", "dose": "16.7 µM", "value": "82%"}
{"SMILES": "NC(=O)[C@H](CO)NC(=O)c1ccc2cc(-c3nc4cc(C(=O)O)ccc4n3C3CCCCC3)ccc2n1", "protein": "NS5B polymerase", "read-out": "inhibition", "dose": "100 µM", "value": "76.24%"}
{"SMILES": "CCC(C)[C@H](NC(=O)[C@@H](NC(=O)CCC(=O)O)C1CCCCC1)C(=O)N[C@@H](CC1CCCCC1)C(=O)N[C@@H](CS)C(=O)O", "protein": "Nonstructural protein 3 NTPase/helicase", "read-out": "inhibition", "dose": "1.67 µM", "value": "29%"}
{"SMILES": "CCC[C@]1(CC(=O)O)OCCc2c1[nH]c1c(C)ccc(C#N)c21", "protein": "NS5B polymerase", "read-out": "IC50", "strain or isolate": "4A genotype 1B", "value": "0.4 µM"}
{"SMILES": "CCCCCc1ccc(C(=O)N(C)c2cc(-c3ccccc3)sc2C(=O)O)cc1", "protein": "NS3 ATPase", "read-out": "IC50", "value": ">20 µM"}
{"SMILES": "COc1ccccc1-c1cc(-c2ccc(-c3ccccc3)cc2)n2nc(C(=O)O)cc2n1", "protein": "RNA-dependent RNA polymerase", "read-out": "IC50", "value": ">10 µM"}
{"SMILES": "O=C(O)C1CCCN1C(=O)c1ccc2c(c1)nc(-c1ccc3nc(-c4ccccc4)ccc3c1)n2C1CCCCC1", "protein": "NS5B polymerase", "read-out": "inhibition", "dose": "100 µM", "value": "88.16%"}
{"SMILES": "CCCCc1ccc(-c2cc(NS(=O)(=O)c3ccccc3C)c(C(=O)O)s2)cc1", "protein": "NS3 ATPase", "read-out": "IC50", "value": "<5 µM"}
{"SMILES": "O=C(O)CCC(=O)N[C@H](C(=O)N[C@@H](CCC(=O)O)C(=O)N[C@@H](CCC(=O)O)C(=O)NC1(C(=O)O)CC1)C(c1ccccc1)c1ccccc1", "protein": "Nonstructural protein 3 NTPase/helicase", "read-out": "IC50", "value": ">167 µM"}

Repeating the first 3 entries:

SMILES	protein	read-out	dose	strain or isolate	value
C=CCc1c(-c2ccc(OCc3ccccc3)cc2)nc2cc(C(=O)O)[nH]n2c1=O	RNA-dependent RNA polymerase	IC50			>10 µM
CSc1nc2ccc(NC(=O)C3(NC(=O)c4ccc5c(c4)nc(-c4ccoc4)n5C4CCCCC4)CCCC3)cc2s1	NS5B polymerase	IC50			0.5–5 µM
O=C(O)CCC(=O)N[C@H](C(=O)N[C@@H](CCC(=O)O)C(=O)N[C@@H](CCC(=O)O)C(=O)NC1(C(=O)O)CC1)C1CCCCC1	Nonstructural protein 3 NTPase/helicase	inhibition	83.5 µM		31%